Experimental data as given in ChEMBL document CHEMBL3098104, “Design, synthesis and preliminary SAR studies of novel N-arylmethyl substituted piperidine-linked aniline derivatives as potent HIV-1 NNRTIs” (Bioorg Med Chem, 2014).

Biological target: Human immunodeficiency virus type 1 reverse transcriptase (Human immunodeficiency virus 1, UniProt Q72547)
Assay: Inhibition of wild-type HIV1 reverse transcriptase assessed as incorporation of biotin-labeled dUTP
Method in brief: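 HIV-1 RT enzyme assay with poly(A)·oligo(dT)15 as template-primer. Incorporation of digoxigenin- and biotin-labeled dUTP into DNA was read colorimetrically with the peroxidase substrate ABTS.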

IC50: 0.071 µM
Compound: Cc1cc(C#N)cc(C)c1Oc1nc(Nc2ccc(C#N)cc2)nc(N)c1Br [ETRAVIRINE]
